These results are taken from article PMC8545924.

This test has as its target BG505_(N611A) SOSIP Env trimer (HIV-1 (clade A, strain BG505)). The experiment in a line: mass photometry.

B1: Ab1245 Fab (Fab, V domains shown)
VH: QVQLQQSGPGLVKPSETLSLTCTVSGGSISESYYWKWIRQPPGKGLEWVGRIYGSGVSTSYNPSLESRVTISKDTSKNHFSLKLTSVTAADTAVYYCARSYVRAETLMFASLGGPYNRFDVWGAGVLVTVSS
VL: QSALTQPSSASASLGASVTLTCTLSSGYSNSAVDWHQQRPGKGPQFVMRVGTGGIVGSKGDGIPDRFSGSGSGLNRYLIIKNIQEEDESDYHCGADHGTGSAFVYVFGGGTKLTVL
For B1, the stoichiometry N (Fabs per trimer) stood at 0.
